# Source: PMC5056392, “CD4-mimetic sulfopeptide conjugates display sub-nanomolar anti-HIV-1 activity and protect macaques against a SHIV162P3 vaginal challenge” (Scientific Reports, 2016)
# Columns and labels:
# [1] = test system: HIV-1 Bal; format: cell-based; settings: Table 2; B-R5; 10^-3 MOI, TZM-bl cells, 48 h; mean of at least 2 independent experiments, triplicates
# Protocol: (§1) The IC50 of the various mCD4-conjugates were measured in TZM-bl cells (NIH AIDS Reagent Program, Germantown, MD 20874, US). This cell line expresses high densities of CD4, CCR5 and CXCR4. It contains a luciferase reporter gene under control of HIV LTR, which will be transcribed and translated into luciferase protein, if the cells get infected with HIV and start producing Tat. Briefly, 50 μl of TZM-bl cells (1 × 10^5 cells/mL) supplemented with 30 μg/mL DEAE dextran were incubated with a 50 μl of a 10-fold serial dilution of the compounds under investigation in 96-well flat bottom plates, prior to inoculation with 50 μl of various viruses (see Tables & and 2; 50, 100 or 200 TCID50 was used depending on the virus). As a positive control, 50 μl of compound-free medium was used and as a negative control, 100 μl of medium was added to 100 μl of TZM-bl cells. All conditions were done in triplicates. The plates were incubated for 48 hours (37 °C, 5% CO2). Subsequently, 120 μL of supernatants were removed, 75 μl of the luciferase substrate Steadylite (Perkin Elmer, Life Sciences, Zaventem, Belgium) were added to the wells and the plates were incubated at room temperature on an orbital shaker for 10 minutes. Next, the luciferase activity was measured using a TriStar LB941 luminometer (Berthold Technologies GmbH & Co. KG., Bad Wildbad, Germany) and expressed in relative light units (RLU) as a percentage of positive control wells. IC50 were calculated in GraphPad Prism 5.03 using non-linear regression (GraphPad Software, San Diego, CA, USA).
# [2] = test system: HIV-1 Ca10-3 (CRF01); format: cell-based; settings: Table 2; AE-X4; 10^-3 MOI, TZM-bl cells, 48 h; mean of at least 2 independent experiments, triplicates
# Protocol: as §1
# [3] = test system: HIV-1 IIIB; format: cell-based; settings: Table 2; B-X4; 10^-3 MOI, TZM-bl cells, 48 h; mean of at least 2 independent experiments, triplicates
# Protocol: as §1
# [4] = test system: HIV-1 MN; format: cell-based; settings: Table 2; B-X4; 10^-3 MOI, TZM-bl cells, 48 h; mean of at least 2 independent experiments, triplicates
# Protocol: as §1
# [5] = test system: HIV-1 MP568 (CRF02); format: cell-based; settings: Table 2; AG-R5; 10^-3 MOI, TZM-bl cells, 48 h; mean of at least 2 independent experiments, triplicates
# Protocol: as §1
# [6] = test system: HIV-1 SF162; format: cell-based; settings: Table 2; B-R5; 10^-3 MOI, TZM-bl cells, 48 h; mean of at least 2 independent experiments, triplicates
# Protocol: as §1
# [7] = test system: HIV-1 VI1888 (CRF01); format: cell-based; settings: Table 2; AE-R5; 10^-3 MOI, TZM-bl cells, 48 h; mean of at least 2 independent experiments, triplicates
# Protocol: as §1
# [8] = test system: HIV-1 VI820; format: cell-based; settings: Table 2; A-X4R5; 10^-3 MOI, TZM-bl cells, 48 h; mean of at least 2 independent experiments, triplicates
# Protocol: as §1
# [9] = test system: HIV-1 VI824; format: cell-based; settings: Table 2; D-R5; 10^-3 MOI, TZM-bl cells, 48 h; mean of at least 2 independent experiments, triplicates
# Protocol: as §1
# [10] = test system: HIV-1 VI829; format: cell-based; settings: Table 2; C-R5; 10^-3 MOI, TZM-bl cells, 48 h; mean of at least 2 independent experiments, triplicates
# Protocol: as §1
# [11] = test system: HIV-1 p246F10; format: cell-based; settings: Table 2; T/F C-R5; 10^-3 MOI, TZM-bl cells, 48 h; mean of at least 2 independent experiments, triplicates
# Protocol: as §1
# [12] = test system: HIV-1 pREJO.c/2864 cl2; format: cell-based; settings: Table 2; T/F B-R5; 10^-3 MOI, TZM-bl cells, 48 h; mean of at least 2 independent experiments, triplicates
# Protocol: as §1
# [13] = test system: HIV-1 pTHRO.c/2626; format: cell-based; settings: Table 2; T/F B-R5; 10^-3 MOI, TZM-bl cells, 48 h; mean of at least 2 independent experiments, triplicates
# Protocol: as §1
# [14] = test system: HIV-1 pWITO.c/2474; format: cell-based; settings: Table 2; T/F B-R5; 10^-3 MOI, TZM-bl cells, 48 h; mean of at least 2 independent experiments, triplicates
# Protocol: as §1
# [15] = test system: HIV-1 pZM247Fv2; format: cell-based; settings: Table 2; T/F C-R5; 10^-3 MOI, TZM-bl cells, 48 h; mean of at least 2 independent experiments, triplicates
# Protocol: as §1
# [16] = test system: SHIV162P3; format: cell-based, SHIV; settings: Table 2; B-R5; 10^-3 MOI, TZM-bl cells, 48 h; mean of at least 2 independent experiments, triplicates
# Protocol: as §1
# [17] = test system: TZM-bl cells; test: WST-1 cytotoxicity assay; format: cell-based; settings: Table 2, 50% cytotoxic concentration, WST-1, 48 h
# Protocol: The water soluble tetrazolium-1 (WST-1) cell proliferation assay is based on the cleavage of the tetrazolium salt WST-1 to a formazan dye by a complex cellular mechanism. Because this bioreduction is dependent on the glycolytic production of NAD(P)H in viable cells, the amount of formazan dye formed is correlates directly to the number of viable cells in a culture. Quantification is done by measuring absorbance at 450 nm in a multiwell plate reader. TZMbl cells (10^4 cells/well) were plated in a 96-well plate and a serial dilution of compound was added. 48 h later, cell proliferation reagent was added and cell viability was measured compared to untreated control cultures. Cell viability was plotted against the compound concentration and non-linear regression analysis was performed to calculate the 50% cytotoxic concentration (CC50).
# [18] = test system: HIV strains from different subtypes; test: TZM-bl antiviral assay, whole panel of strains; format: cell-based, HIV-1; settings: average over the strains tested, TZM-bl cells
# Protocol: as §1, with “Subsequently, 120 μL of supernatants were removed, 75 μl of the luciferase substrate Steadylite (Perkin Elmer, Life Sciences, Zaventem, Belgium) were added to the wells and the plates were incubated at room temperature on an orbital shaker for 10 minutes.” left out
# [19] = test system: HIV-1 NL4.3; format: cell-based; settings: primary CD4 T cells infected with NL4.3, co-culture with autologous target cells, Gag+ targets by flow cytometry
# Protocol: Primary CD4^+ T cells were purified from human peripheral blood by positive selection (Miltenyi). About 98% of cells were CD4^+CD3^+. For activation, primary T cells were treated with PHA (1 μg/ml) for 24 h and then cultured with IL-2 (50 IU/ml) for 3–5 days before use. Primary cells were infected with HIV-1 NL4-3 and NLAD8 as described. Donor cells were used a few days later, when about 20% of the cells were Gag^+. Target cells were labeled with FarRed (2.5 μM; Molecular Probes). Donors were preincubated 1 h with the indicated doses of compounds. Donor and target cells were then mixed at a 1:2 ratio in 96-well plates at a final a concentration of 1.5 × 10^6/ml in 200 μl, in duplicates. After 48 or 72 h, cells were stained for intracellular Gag (KC57 mAb, Coulter) and analyzed by flow cytometry. When used, mCD4 or mCD4-conjugates were added 1 h before coculture. Measurement of the levels of Env epitopes at the surface of infected cells with 3BNC117 was performed by flow cytometry as previously described.
# [20] = 48 h, read-out: IC50 (nM) 48h, cell-cell transmission
# [21] = 72 h, read-out: IC50 (nM) 72h, cell-cell transmission
SMILES,IC50 [1] [nM],IC50 [2] [nM],IC50 [3] [nM],IC50 [4] [nM],IC50 [5] [nM],IC50 [6] [nM],IC50 [7] [nM],IC50 [8] [nM],IC50 [9] [nM],IC50 [10] [nM],IC50 [11] [nM],IC50 [12] [nM],IC50 [13] [nM],IC50 [14] [nM],IC50 [15] [nM],IC50 [16] [nM],CC50 [17] [nM],average decrease in IC50 relative to parent mCD4.1 [18] [times],"IC50 [19, 20] [nM]","IC50 [19, 21] [nM]"
CC(C)C[C@@H]1NC(=O)CNC(=O)[C@H](CC(C)C)NC(=O)[C@H](CO)NC(=O)[C@H](CCCNC(=N)N)NC(=O)[C@@H]2CSSC[C@@H](C(=O)N[C@H](C(N)=O)C(C)C)NC(=O)[C@H](C)NC(=O)[C@@H]3CSSC[C@H](NC(=O)[C@H](CCCCN)NC(=O)[C@H](Cc4c[nH]cn4)NC(=O)[C@H](CC(C)C)NC(=O)[C@H](CC(N)=O)NC(=O)CCSSC[C@H](NC(=O)[C@H](CCCNC(=N)N)NC(=O)CNC(=O)[C@H](CC(C)C)NC1=O)C(=O)N[C@@H](C)C(=O)N1CCC[C@@H]1C(=O)N[C@@H]([C@@H](C)O)C(=O)N[C@@H](Cc1ccc(OCC4CCCCC4)cc1)C(=O)N3)C(=O)N[C@@H](CCC(N)=O)C(=O)N[C@@H](CC(C)C)C(=O)N[C@@H](CCCNC(=N)N)C(=O)N2 [mCD4.3],2.3,3.1,0.16,0.37,204,0.66,4510,4.2,39,221,510,46,15,178,> 1000,29,15540,115,6.6,3.2
CC(C)C[C@@H]1NC(=O)CNC(=O)[C@H](CC(C)C)NC(=O)[C@H](CO)NC(=O)[C@H](CO)NC(=O)[C@@H]2CSSC[C@@H](C(=O)N[C@H](C(N)=O)C(C)C)NC(=O)[C@H](C)NC(=O)[C@@H]3CSSC[C@H](NC(=O)[C@H](CCCCN)NC(=O)[C@H](Cc4c[nH]cn4)NC(=O)[C@H](CC(C)C)NC(=O)[C@H](CC(N)=O)NC(=O)CCSSC[C@H](NC(=O)[C@H](CCCNC(=N)N)NC(=O)CNC(=O)[C@H](CC(C)C)NC1=O)C(=O)N[C@@H](C)C(=O)N1CCC[C@@H]1C(=O)N[C@@H]([C@@H](C)O)C(=O)N[C@@H](Cc1ccc(OCC4CCCCC4)cc1)C(=O)N3)C(=O)N[C@@H](CCC(N)=O)C(=O)N[C@@H](CC(C)C)C(=O)N[C@@H](CCCNC(=N)N)C(=O)N2 [mCD4.2],2,4.7,0.22,0.59,155,1.3,5380,6.1,56,512,718,76,19,184,> 1000,69,24036,80,5.9,2.8

# Read-outs that look alike come from different tables or passages of the source.
